Measurements reported in PubChem BioAssay AID624099 (ICCB-Longwood, 2012)

Aim: 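Host factors E2 relies on to silence an HPV18 LCR reporter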 (primary screen)
Cells: human C33A cervical carcinoma cells (HPV-negative) stably expressing BPV1 E2 and an HPV18 LCR luciferase reporter
Knock-down reagent: siRNA pool against human genes, 40 nM
Time to read-out: 72 h
Measured: 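HPV18 LCR reporter light per well, converted to plate-wise z-scores that exclude control wells, and averaged over triplicate plates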
Scale: mean z-score and z-score: higher = stronger reporter signal, weaker E2 silencing
Call rule: 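Mean z ≥ 2 together with z ≥ 2 in two or more of the three replicates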
The deposit covers about 21,000 reagents; this is a part drawn at random. 497 of all reagents (2.4%) count as active. 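Higher z means weaker E2 silencing; only reporter increases were scored, and knock-downs that hurt cell survival may mask genuine repressor factors.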 The numbers tell different reagents against one gene apart.

gene symbol | reagent no. | mean z-score | z-score, replicate A | z-score, replicate B | z-score, replicate C | Outcome
PSMD10 | 1 | 0.5 | -0.32 | 1.12 | 0.71 | inactive
WDR33 | 1 | -0.01 | -0.01 | 0.04 | -0.07 | inactive
LANCL3 | 1 | 1.31 | 1.04 | 1.4 | 1.48 | inactive
MIS18A | 1 | 0.73 | 0.98 | 0.73 | 0.47 | inactive
ARFGAP3 | 1 | 1.05 | 1.14 | 0.97 | 1.05 | inactive
DYNC1I1 | 1 | 0.14 | 0.25 | 0.1 | 0.09 | inactive
ISLR2 | 1 | -1.58 | -1.54 | -1.45 | -1.76 | inactive
COPB2 | 1 | -1.09 | -0.79 | -1.17 | -1.32 | inactive
C18orf54 | 1 | -0.49 | -0.65 | -0.07 | -0.76 | inactive
OSBPL10 | 1 | -0.14 | 0.05 | 0.01 | -0.49 | inactive
CPNE2 | 1 | 0.23 | 0.05 | 0.6 | 0.04 | inactive
ST6GALNAC5 | 1 | -0.85 | -1 | -0.58 | -0.98 | inactive
ECE1 | 1 | -0.66 | -0.35 | -0.91 | -0.72 | inactive
FLJ44385 (retired record) | 1 | 0.06 | 0.12 | 0.04 | 0.01 | inactive
MISP3 | 1 | -1.68 | -2.04 | -1.7 | -1.31 | inactive
C17orf67 | 1 | -0.59 | 0.05 | -0.74 | -1.08 | inactive
AGO2 | 1 | 1.07 | 1.22 | 1.33 | 0.65 | inactive
LOC399921 (retired record) | 1 | 1.53 | 1.99 | 1.19 | 1.4 | inactive
GNPTAB | 1 | 0.32 | -0.12 | 0.32 | 0.76 | inactive
USF2 | 1 | 1.24 | 1.42 | 0.98 | 1.32 | inactive
MADCAM1 | 1 | 1.58 | 1.59 | 1.57 | 1.57 | inactive
ZSCAN32 | 1 | -1.42 | -1.12 | -1.12 | -2.03 | inactive
LOC389329 (retired record) | 1 | 0.17 | 0.31 | 0.08 | 0.1 | inactive
H2AC6 | 1 | 0.67 | 0.83 | 0.65 | 0.54 | inactive
LOC389162 (retired record) | 1 | 0.88 | 1.03 | 0.9 | 0.7 | inactive
DOCK8-AS1 | 1 | 0.51 | 0.19 | 0.53 | 0.81 | inactive
LOC389077 (retired record) | 1 | -0.55 | 0.02 | -1.32 | -0.36 | inactive
FAHD2B | 1 | 0.02 | 0.15 | -0.12 | 0.04 | inactive
ITGA6 | 1 | -0.17 | -0.37 | -0.07 | -0.06 | inactive
CLK4 | 1 | -0.67 | -0.4 | -1 | -0.6 | inactive
GHRHR | 1 | -2.35 | -1.75 | -2.53 | -2.79 | inactive
ING3 | 1 | 0.69 | 0.83 | 0.28 | 0.96 | inactive
RMP24 | 1 | 0.19 | 0.11 | 0.29 | 0.18 | inactive
TMEM123 | 1 | 0.44 | 0.34 | 0.64 | 0.34 | inactive

Part of the list above, reformatted:
LOC389329 (retired record)
- mean z-score: 0.17
- z-score, replicate A: 0.31
- z-score, replicate B: 0.08
- z-score, replicate C: 0.1
- Outcome: inactive

H2AC6
- mean z-score: 0.67
- z-score, replicate A: 0.83
- z-score, replicate B: 0.65
- z-score, replicate C: 0.54
- Outcome: inactive

LOC389162 (retired record)
- mean z-score: 0.88
- z-score, replicate A: 1.03
- z-score, replicate B: 0.9
- z-score, replicate C: 0.7
- Outcome: inactive

DOCK8-AS1
- mean z-score: 0.51
- z-score, replicate A: 0.19
- z-score, replicate B: 0.53
- z-score, replicate C: 0.81
- Outcome: inactive

LOC389077 (retired record)
- mean z-score: -0.55
- z-score, replicate A: 0.02
- z-score, replicate B: -1.32
- z-score, replicate C: -0.36
- Outcome: inactive

FAHD2B
- mean z-score: 0.02
- z-score, replicate A: 0.15
- z-score, replicate B: -0.12
- z-score, replicate C: 0.04
- Outcome: inactive

The results go on.
gene symbol | reagent no. | mean z-score | z-score, replicate A | z-score, replicate B | z-score, replicate C | Outcome
SERF1A | 1 | 0.21 | 0.34 | 0.24 | 0.04 | inactive
SFN | 1 | 0.04 | 0.39 | -0.36 | 0.11 | inactive
MCRIP1 | 1 | -0.1 | -0.33 | -0.02 | 0.04 | inactive
MAP2K6 | 1 | -1.08 | -1.29 | -1.03 | -0.93 | inactive
SH3RF2 | 1 | 2.71 | 2.96 | 2.57 | 2.61 | active
SAE1 | 1 | 0.28 | 0.41 | 0.2 | 0.22 | inactive
SEPTIN14 | 1 | 0.47 | 0.49 | 0.32 | 0.61 | inactive
LOC389385 (retired record) | 1 | -0.57 | -0.59 | -1.06 | -0.07 | inactive
TMBIM1 | 1 | -0.67 | -0.23 | -0.91 | -0.88 | inactive
RFPL4B | 1 | -0.84 | -1.05 | -0.52 | -0.95 | inactive
SMN2 | 1 | -1.41 | -1.58 | -1.3 | -1.36 | inactive
HNRNPA1P8 | 1 | -0.18 | -0.14 | -0.42 | 0.02 | inactive
HNRNPA1P8 | 2 | -0.42 | -0.33 | -0.54 | -0.41 | inactive
FYCO1 | 1 | 0.42 | 0.65 | 0.19 | 0.43 | inactive
MMP12 | 1 | -0.06 | 0.23 | -0.19 | -0.21 | inactive
PRELID1 | 1 | 0.09 | 0.44 | -0.08 | -0.08 | inactive
LOC283202 (retired record) | 1 | 0.43 | 0.49 | 0.43 | 0.38 | inactive
PIGO | 1 | -0.21 | -0.28 | -0.29 | -0.06 | inactive
ADAMDEC1 | 1 | 0.65 | 0.86 | 0.56 | 0.53 | inactive
SIRPG | 1 | -0.58 | -0.94 | -0.45 | -0.35 | inactive
TMEM202 | 1 | 0.29 | 0.47 | 0.09 | 0.32 | inactive
NUDT3 | 1 | -1.48 | -1.52 | -1.41 | -1.5 | inactive
RAB30 | 1 | -1.01 | -0.99 | -1.08 | -0.97 | inactive
TRMT5 | 1 | 1.1 | 1.08 | 1.49 | 0.74 | inactive
BMP5 | 1 | -0.53 | -0.28 | -0.49 | -0.82 | inactive
PPP1R42 | 1 | -0.17 | 0.49 | -0.83 | -0.17 | inactive
PIGG | 1 | 1.5 | 1.47 | 1.85 | 1.18 | inactive
ANKRD45 | 1 | -0.06 | -0.33 | 0.23 | -0.08 | inactive
UCKL1 | 1 | -1.72 | -1.86 | -1.9 | -1.42 | inactive
SLC28A1 | 1 | 0.41 | 0.32 | 0.56 | 0.36 | inactive
LHX1 | 1 | 0.37 | 0.31 | 0.17 | 0.63 | inactive
CCL17 | 1 | -3.04 | -3.13 | -3.01 | -2.98 | inactive
SUDS3 | 1 | -1.07 | -1.01 | -0.95 | -1.24 | inactive
DAB2IP | 1 | 1 | 0.93 | 1.18 | 0.89 | inactive
FFAR3 | 1 | 1.55 | 2 | 0.99 | 1.65 | inactive
EFL1P1 | 1 | -0.97 | -0.74 | -1.12 | -1.05 | inactive
GGT3P | 1 | -0.54 | -0.41 | -0.62 | -0.6 | inactive
GGT3P | 2 | -2.55 | -2.62 | -2.56 | -2.46 | inactive
THTPA | 1 | 0.99 | 1.08 | 1.27 | 0.63 | inactive
